This note sets out measurements from PMC13038408.

For this assay, the target named is RSVF-multi-4 with all five redesigned site V residues reverted to native. The experiment in a line: SPR. In general terms: SPR reads the build-up and loss of mass on a sensor chip optically.

With RSV90 Fab, the dissociation constant (Kd) (as a rule, the constant that tells how readily two partners part at equilibrium) was 0.49 µM.
